One molecule from PubChem BioAssay AID214 (DTP/NCI, 2004) can be followed below.

Records with an inconclusive call do not appear.

The test system of this experiment is B6C3F1 mice, colon carcinoma 38 s.c., T/C. The experiment can be described thus: NCI In Vivo Anticancer Drug Screen. Data for tumor model Colon Carcinoma 38 (subcutaneous) in B6C3F1 mice. The following applies: endpoint: median tumor weight (est.), schedule: Q07DX002 (ip), vehicle: saline, higher = larger tumour. Here is the method:
The antitumor activity of compounds was measured in mice bearing transplantable tumors. Survival or tumor size were measured and the results are expressed as the measurement made in the treated group (T) divided by the measurement made in the vehicle treated control group (C). The tumor model used in this assay is Colon Carcinoma 38 (subcutaneous) in B6C3F1 mice

`O=P1(N(CCCl)CCCl)NC(SCCS(=O)(=O)O)CCO1` (stereo not drawn): the T/C is, setting by setting: (dose: 50.0 mg/kg/injection) 67 % of control; (dose: 100.0 mg/kg/injection) 14 % of control; (dose: 200.0 mg/kg/injection) 12 % of control.
